# Data reported in PMC10508830 (Antiviral research, 2023).
# Sequences of proteins named here, by UniProt entry; tags and fusion partners are left off.
# UniProt Q9Q0U7, whole entry, looked up: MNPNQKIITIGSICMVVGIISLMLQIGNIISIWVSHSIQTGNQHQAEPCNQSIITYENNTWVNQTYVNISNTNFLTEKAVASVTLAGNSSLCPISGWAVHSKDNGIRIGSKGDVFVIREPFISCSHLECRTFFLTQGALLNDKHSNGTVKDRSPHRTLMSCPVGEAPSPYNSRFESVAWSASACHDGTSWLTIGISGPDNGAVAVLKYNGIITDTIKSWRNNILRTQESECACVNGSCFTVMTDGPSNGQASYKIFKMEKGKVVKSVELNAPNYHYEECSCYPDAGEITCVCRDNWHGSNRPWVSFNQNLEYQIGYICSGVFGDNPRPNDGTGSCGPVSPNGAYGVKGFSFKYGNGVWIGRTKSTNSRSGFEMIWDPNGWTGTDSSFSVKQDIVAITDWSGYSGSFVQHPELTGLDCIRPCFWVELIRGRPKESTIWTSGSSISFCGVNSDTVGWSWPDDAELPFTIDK
# Legend:
# Conditions in all cases: read-out: Mean IC50 ± SD
# [1] = target: NA of A/fox/Wisconsin/22-013774-002/2022 (Influenza A virus, UniProt Q9Q0U7); assay type: biochemical
# [2] = target: NA of A/turkey/Iowa/22-012098-001/2022 (Influenza A virus, UniProt Q9Q0U7); assay type: biochemical
# [3] = target: NA of A/red-shouldered hawk/Minnesota/22-012000-004/2022 (Influenza A virus, UniProt Q9Q0U7); assay type: biochemical
# [4] = target: NA of A/black vulture/Florida/22-012333-001/2022 (N/S295, T/N438, mixed population) (Influenza A virus (H5N1), UniProt Q9Q0U7); assay type: biochemical
# [5] = target: NA of A/bald eagle/Florida/22-006544-004/2022 (Influenza A virus, UniProt Q9Q0U7); assay type: biochemical
# [6] = target: NA of A/Cooper's hawk/Minnesota/22-012931-001/2022 (Influenza A virus, UniProt Q9Q0U7); assay type: biochemical, influenza A(H5N1) virus
# [7] = target: NA of A/black vulture/Maryland/22-012407-001/2022 (Influenza A virus (H5N1), UniProt Q9Q0U7); assay type: biochemical
# [8] = target: NA of A/Canada goose/Wyoming/22-011671-001/2022 (Influenza A virus, UniProt Q9Q0U7); assay type: biochemical, influenza A(H5N1) virus
substance,measurement,setting,value
oseltamivir carboxylate,IC50,[1],2.78 nM
same,IC50,[2],2.66 nM
same,IC50,[3],2.39 nM
same,IC50,[4],11.1 nM
same,IC50,[5],3.01 nM
same,IC50,[6],2.73 nM
same,IC50,[7],2.31 nM
same,IC50,[8],2.7 nM
